Human monoclonal antibodies against the spike receptor-binding domain (heavy:light variable regions). IC50 against pseudoviruses bearing the spike of naturally observed variants; lower = stronger; >10 µg/ml means not reached at the top dose. No active / inactive call. The stated detection limit is 0.0005 µg/ml; values near or below 0.001 µg/ml lie at the floor of the assay.
B1: BD57-0374 (protein)
chain 1: EVQLVESGGGLVQPGRSLRLSCTASGFNFEDYTMHWVRQAPGKGLEWVSGISWNGGTIGYAESVKGRCIISRDNAKNSLYLHLRSLRAEDTAFYYCAKDTMVREGYNNYYGMDVWGQGTTVTVSS
chain 2: QSVLTQPPSVSGAPGQRVTISCTGSSSNIGAGYDVHWYQQLPGPAPKLLIYGTNNRPSGVPDRFSGSKSGTSASLAITGLQAEDEADYYCQSFDSSLGGYVFGTGTKVTVL
B2: BD57-0364 (protein)
chain 1: QVQLVESGGGVVQPGGSLRLSCAASGFTFKNYGLHWVRQAPGKGPEWVSFIWYDGSNKYYADSVKGRFITSRDNSKNTLFLQMNSLRPDDTAVYYCSLGSGSYASDPRTLDYWGHGALVTVSS
chain 2: DIQMTQSPSSLSASVGDRVTITCRASQNIANYLNWYQQKPGKAPELLIYDASSLQSGDPSRFSGSGSGTDFTLTISSLQPEDFATYYCQQSYSTPLFTFGQGTKLEIK
B3: BD57-0369 (protein)
chain 1: QVQLVESGGGVVQPGRSLRLSCAASGFTFRNYGMHWVRQAPGKGLEWVAMIWNDGSNAYYGDSVKGRFTISRDNSKNTLFLQMNTLRVEDMAVYYCVRDAGSEVLYDVTGQGNWFDPWGQGTLVTVSS
chain 2: DIQMTQSPSSLSASVGDRVTITCRASQNIESHLNWYQQKPGKAPKLLIYAASTLQSEVPSRFSGRGTGTDFTLTISSLQREDFATYYCQQSDSLPTTFGQGTKVEIK
B4: BD57-0357 (protein)
chain 1: QVQLVQSGAEVKRPGASVKVSCKASGYTFTSYDINWVRQAAGQGLEWMGWISPISGNTGFAQKFQGRVSMTRDTSISTVFLDLSGLRSEDTAVYYCARGGRYCTSTNCYSHYGLDVWGQGTTVIVSS
chain 2: DIQLTQSPSFLSASVGDRVTITCRASQDISTHLAWYQQKPGKAPKFLIYDASTLQSGVPSRFSGSGSGTEFTLTISSLQPEDFATYYCQQLNTYTLTFGGGTKLDIK
B5: BD57-0358 (protein)
chain 1: EVQLVQSGVEVKKPGESLKISCKGSGYSFTNHWIGWVRQMPGKGLEWMGIIYPGDSDTRYNPSFQGQVTISVDKSISSAYLQWSSLKASDTAMYYCASRGGAYLGDVFDIWGQGTMVIVSS
chain 2: QSALTQPASVSGSPGQSITISCTGTSSDVGSYNLLSWYQQHPGKAPKLMIYEGSERPSGVSHRFSGSNSGTTASLTISGLQSEDEADYYCCSYAGSTTPWVFGGGTKLTVL
B6: BD57-0359 (protein)
chain 1: QVQLVQSGAEVKKPGASVKVSCKASGHTFTGYYMHWVRQAPGQGLEWMGWINPISGGTNYAQKFQGRVTMTRDTSINTAYMELSRLTADDTAVYYCARRGEEEQWLEHGYYYYMDVWGKGTTVTVSS
chain 2: QSALTQPASVSGSPGQSITISCTGTSSDVGAYNYVSWYQQHPGKAPKLIIYDVSNRPSGISNRFSGSTSGNTASLTISGLQAEDEADYYCSSNTSRTLVFGGGTKLTVL

These binders were tested against SARS-CoV-2 Omicron BA.1 spike pseudovirus (assay: pseudovirus neutralization IC50; higher = weaker neutralization).
Description: (§1)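 Single-round VSV luciferase pseudovirus mixed with antibody dilutions for 1 h and put on Huh-7 cells for about a day; IC50 from the dose curve.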
B1 was tested, and the “pseudovirus neutralization IC50” value was 0.102 µg/mL. For B2, the “pseudovirus neutralization IC50” value was 5.98 µg/mL. With B3 the “pseudovirus neutralization IC50” value was 2.92 µg/mL. In the case of B4, the “pseudovirus neutralization IC50” value is reported as 3.08 µg/mL. For B5, the “pseudovirus neutralization IC50” value was 0.783 µg/mL. With B6 the “pseudovirus neutralization IC50” value was greater than 10 µg/mL.

The binders below were run against SARS-CoV-2 Omicron BA.2 spike pseudovirus in the same assay as above.
Description: as §1
With B1 the “pseudovirus neutralization IC50” value was 0.0746 µg/mL. With B2 the “pseudovirus neutralization IC50” value was 4.14 µg/mL. In the case of B3, the “pseudovirus neutralization IC50” value is reported as 2.36 µg/mL. B4 was tested, and the “pseudovirus neutralization IC50” value was 0.0895 µg/mL. With B5 the “pseudovirus neutralization IC50” value was 0.433 µg/mL. In the case of B6, the “pseudovirus neutralization IC50” value is reported as greater than 10 µg/mL.

These binders were tested against SARS-CoV-2 Omicron BA.2.75 spike pseudovirus in the same assay as above.
Description: as §1
B1 was tested, and the “pseudovirus neutralization IC50” value was 0.054 µg/mL. In the case of B2, the “pseudovirus neutralization IC50” value is reported as 5.18 µg/mL. With B3 the “pseudovirus neutralization IC50” value was 2.18 µg/mL. B4 was tested, and the “pseudovirus neutralization IC50” value was 0.0139 µg/mL. For B5, the “pseudovirus neutralization IC50” value was 0.695 µg/mL. B6 was tested, and the “pseudovirus neutralization IC50” value was 0.343 µg/mL.

What follows are binders tested against SARS-CoV-2 Omicron BA.5 spike pseudovirus in the same assay as above.
Description: as §1
For B1, the “pseudovirus neutralization IC50” value was 0.069 µg/mL. B2 was tested, and the “pseudovirus neutralization IC50” value was greater than 10 µg/mL. B3 was tested, and the “pseudovirus neutralization IC50” value was 2.58 µg/mL. B4 was tested, and the “pseudovirus neutralization IC50” value was greater than 10 µg/mL. For B5, the “pseudovirus neutralization IC50” value was 0.544 µg/mL. With B6 the “pseudovirus neutralization IC50” value was greater than 10 µg/mL.

Each binder was assayed against SARS-CoV-2 Omicron BQ.1.1 spike pseudovirus in the same assay as above.
Description: as §1
B1 was tested, and the “pseudovirus neutralization IC50” value was greater than 10 µg/mL. In the case of B2, the “pseudovirus neutralization IC50” value is reported as greater than 10 µg/mL. In the case of B3, the “pseudovirus neutralization IC50” value is reported as 2.94 µg/mL. For B4, the “pseudovirus neutralization IC50” value was greater than 10 µg/mL. B5 was tested, and the “pseudovirus neutralization IC50” value was 1.3 µg/mL. For B6, the “pseudovirus neutralization IC50” value was greater than 10 µg/mL.

What follows are binders tested against SARS-CoV-2 Omicron XBB spike pseudovirus in the same assay as above.
Description: as §1
For B1, the “pseudovirus neutralization IC50” value was 3.21 µg/mL. For B2, the “pseudovirus neutralization IC50” value was greater than 10 µg/mL. For B3, the “pseudovirus neutralization IC50” value was 3.06 µg/mL. B4 was tested, and the “pseudovirus neutralization IC50” value was greater than 10 µg/mL. With B5 the “pseudovirus neutralization IC50” value was 0.896 µg/mL. B6 was tested, and the “pseudovirus neutralization IC50” value was greater than 10 µg/mL.

Each binder was assayed against SARS-CoV-2 early D614G spike pseudovirus in the same assay as above.
Description: as §1
For B1, the “pseudovirus neutralization IC50” value was 0.0236 µg/mL. In the case of B2, the “pseudovirus neutralization IC50” value is reported as greater than 10 µg/mL. In the case of B3, the “pseudovirus neutralization IC50” value is reported as greater than 10 µg/mL. B4 was tested, and the “pseudovirus neutralization IC50” value was 0.00117 µg/mL. In the case of B5, the “pseudovirus neutralization IC50” value is reported as 4.4 µg/mL. B6 was tested, and the “pseudovirus neutralization IC50” value was 0.000916 µg/mL.

Source: the supplement of paper PMC9931576
